{"source": "patent US6780414B2", "about": "(priority 1998, dated 2004)", "key": {"S. flexneri 2457T": {"test_system": "S. flexneri 2457T", "settings": "T84 monolayers, mean ± SEM"}, "[1]": {"test_system": "S. flexneri-induced PMN transepithelial migration", "assay": "PMN transepithelial migration assay across T84 cell monolayers", "settings": "apical surface pretreated with 300 μM cadaverine, 37° C., 30 min, washed, then infection (FIG. 4)"}}, "note": "Where two headings read alike, the source gives them in different places."}
{"compound": "NCCCCCN", "note": "[cadaverine, 1,5-diaminopentane]", "values": [{"measurement": "% Association 2457T", "setting": "S. flexneri 2457T; 100 μM cadaverine", "result": "4.49 ± 0.19", "unit": "%"}, {"measurement": "% Internalization 2457T", "setting": "S. flexneri 2457T; 100 μM cadaverine", "result": "0.52 ± 0.01", "unit": "%"}, {"measurement": "% Association 2457T", "setting": "S. flexneri 2457T; 300 μM cadaverine", "result": "6.01 ± 0.72", "unit": "%"}, {"measurement": "% Internalization 2457T", "setting": "S. flexneri 2457T; 300 μM cadaverine", "result": "0.40 ± 0.11", "unit": "%"}, {"measurement": "% Association 2457T", "setting": "S. flexneri 2457T; 500 μM cadaverine", "result": "4.00 ± 0.70", "unit": "%"}, {"measurement": "% Internalization 2457T", "setting": "S. flexneri 2457T; 500 μM cadaverine", "result": "0.50 ± 0.11", "unit": "%"}, {"measurement": "ability of 2457T to induce PMN transepithelial migration", "setting": "[1]", "result": "dramatically reduced"}]}
